Reference: ChEMBL document CHEMBL2401699, “4-Amino-7-chloroquinolines: probing ligand efficiency provides botulinum neurotoxin serotype A light chain inhibitors with significant antiprotozoal activity” (J Med Chem, 2013)

Assays:
[1] = Selectivity index, ratio of IC50 for human HepG2 cells to IC50 for Plasmodium falciparum TM91C235; type: toxicity, cell-based
[2] = Selectivity index, ratio of IC50 for human HepG2 cells to IC50 for Plasmodium falciparum W2; type: toxicity, cell-based
[3] = Selectivity index, ratio of IC50 for human HepG2 cells to IC50 for Plasmodium falciparum D2; type: toxicity, cell-based
[4] = system: Plasmodium falciparum; assay: Antimalarial activity against multidrug-resistant Plasmodium falciparum TM90C2A after 72 hrs by MSF assay; type: functional, organism-based

SMILES	Ratio IC50 [1]	Ratio IC50 [2]	Ratio IC50 [3]	IC90 [4] [µM]
Clc1ccc2c(NCCNCc3ccccc3)ccnc2c1	2630	1780	3030	
Clc1ccc2c(NCCCNCc3ccc(Br)cc3)ccnc2c1	800	834	1250	0.0101
